From patent US5364879A, “Medical uses of trioxolane and diperoxide compounds” (Cliveden Ltd., priority 1994, dated 1994)

System: E. coli
Assay: In vitro anti-microbial assay (inoculated ointment, 28 days)
Settings: ointment containing 1.0%; at 7 days and all subsequent samples to 28 days, 20°-25° C.

CC1(C)OOC(CCC(C)(O)C2OCOO2)O1 (stereo not shown) [linalool trioxolane]
viable CFUs present: less than 10 CFUs
